PubChem BioAssay AID1721 (National Center for Advancing Translational Sciences (NCATS), 2009)
The list shows a part of the results, in another mix than the full data. Active and inactive are the calls of the source. Calls follow the shape of the dose curve; as a rule, active = well fitted inhibition curve with a large enough effect; inconclusive = small, poorly fitted or top-dose-only effect, or another doubt; inactive = no such curve, though single readings can be large or run the other way.

Amino acid sequences for entries named in this document (tags omitted). A change or cut given only in a name is not applied to a line headed by its entry.
UniProt Q27686: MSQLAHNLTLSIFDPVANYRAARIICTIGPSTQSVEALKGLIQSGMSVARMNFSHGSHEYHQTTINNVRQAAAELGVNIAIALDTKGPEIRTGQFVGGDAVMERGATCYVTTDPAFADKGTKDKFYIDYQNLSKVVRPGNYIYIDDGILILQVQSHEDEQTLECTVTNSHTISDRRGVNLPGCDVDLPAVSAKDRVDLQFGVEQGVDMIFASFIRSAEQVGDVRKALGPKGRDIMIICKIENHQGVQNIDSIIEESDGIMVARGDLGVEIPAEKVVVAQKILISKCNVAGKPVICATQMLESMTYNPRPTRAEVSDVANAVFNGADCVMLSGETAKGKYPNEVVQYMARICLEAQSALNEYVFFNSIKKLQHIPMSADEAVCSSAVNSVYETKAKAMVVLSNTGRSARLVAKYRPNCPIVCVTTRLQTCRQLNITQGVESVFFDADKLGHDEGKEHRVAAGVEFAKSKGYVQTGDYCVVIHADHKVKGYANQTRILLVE

Target: Pyruvate kinase (Leishmania mexicana) (UniProt Q27686)
Assay: qHTS Assay for Inhibitors of Leishmania Mexicana Pyruvate Kinase (LmPK)
Details: purified LmPK, Kinase-Glo ATP luminescence, 1 h; at 57.5 µM (top of the series)
Description: NIH Chemical Genomics Center [NCGC] Malcolm Walkinshaw, Hugh Morgan, Linda Gilmore University of Edinburgh, UK MLPCN Grant: 1 R03 MH085697-01 NCGC Assay Overview: Pyruvate kinase (L. Mexicana) (LmPK) enzyme was supplied as a highly purified (>95% pure) sulphate-free preparation from University of Edinburgh, UK and assayed for its ability to generate ATP from ADP using phosphoenolpyruvate (PEP) as a substrate. ATP generation was detected in a coupled reaction by luciferase-mediated luminescence, an ATP-dependent process. […] The enzyme was assayed at an intermediate level of activity to screen for both inhibitors and activators.
NCGC Assay Protocol Summary: Three uL of enzyme mix (kept on ice) in assay buffer (50 mM Imidazole pH7.2, 50 mM KCl, 7 mM MgCl2, 0.01% Tween 20, 0.05% BSA) containing PEP (0.5 mM final concentration) and LmPK (0.1 nM final concentration) was dispensed into white solid bottom 1,536 well microtiter plates. 23 nL of compound were delivered by a pin tool and 1 uL of ADP mix in assay buffer (r.t; 0.1 mM final ADP concentration) was added. Plates were incubated at room temperature for 1 hour. Two uL of detection mix (Kinase-Glo, Promega; at 4 degree Celsius protected from light) was added and luminescence read by a ViewLux (Perkin Elmer) at 1 second exposure/plate. Data were normalized to the uninhibited and AC100 inhibition (no enzyme). To monitor activation, the first column contained a five-fold concentration of LmPK (0.5 nM).
% is scaled to controls: 0 for no effect and ±100 for the full control effect.

SMILES | activity change, negative = inhibition
O=[N+]([O-])c1cccc2n[nH]nc12 | inactive: 4.21%
CC(=O)N1C2C3N(C(C)=O)C1C1N(C(C)=O)C(C(N1C(C)=O)N3C(C)=O)N2C(C)=O | inactive: 2.65%
COc1ccc(C2=NCC(CBr)S2)cc1 (stereo not given) | inactive: -2.61%
CC1CCN(C(=O)Oc2c(Cl)cc(Cl)c3cccnc23)CC1 | inactive: 2.82%
CN(C)C(=O)OCCc1n(C)cc[n+]1C | inactive: -2.54%
CC(C)=N/N=C(\N)N[N+](=O)[O-] | inactive: 0.909%
CCN(/C(=N/P(=O)(N1CCOCC1)N1CCOCC1)N1CCOCC1)c1ccc(OC)cc1 | inactive: 0.99%
Nc1ccc([As](=O)(O)c2ccc(N)cc2)cc1 | inactive: 1.25%
c1nnnn1CCn1cnnn1 | inactive: 2.53%
CC(C)C(=O)NC(Sc1ccccc1)C(Cl)(Cl)Cl (stereo not given) | inactive: 0.892%
O=P(Nc1nccs1)(c1ccccc1)c1ccccc1 | inactive: -11.8%
C[C@H]1OP(=O)(Oc2ccccc2)[C@H](O)[C@H](O)[C@H]1N=[N+]=[N-] (stereo not given in full) | inactive: -0.878%
O=P(Nc1nc2ccccc2s1)(c1ccccc1)c1ccccc1 | inactive: 2.19%
O=P(Nc1ccccn1)(c1ccc(Br)cc1)c1ccc(Br)cc1 | inactive: 0.396%
CN(C)C1(CNC(=O)c2ccc(Cl)c(S(N)(=O)=O)c2)CCCCC1 | inactive: 0.502%
O=C(OC1CN2CCC1CC2)c1cccc(Cl)c1 (stereo not given) | inactive: 3.69%
C(Cc1nn[nH]n1)Cc1nn[nH]n1 | inactive: -3.29%
Nc1ccc([As](=O)(O)c2ccc([N+](=O)[O-])cc2)cc1 | inactive: 0.847%
O=[As](O)(c1ccccc1)c1ccc(O)cc1 | inactive: 4.41%
O=[N+]([O-])c1ccc(O)c(/C=N/Nc2ccc([N+](=O)[O-])cc2[N+](=O)[O-])c1 | inactive: 7.29%
O=[N+]([O-])c1ncn(CCn2cnc([N+](=O)[O-])n2)n1 | inactive: 0.369%
CC(=O)NC(SC(=S)N(C)C)C(Cl)(Cl)Cl (stereo not given) | inactive: -1.75%
CCOC(=O)NC(Sc1ccccc1)C(Cl)(Cl)Cl (stereo not given) | inactive: -0.677%
Cc1ccc(NP(=O)(Oc2cccc(C)c2)Oc2cccc(C)c2)nc1 | inactive: 1.1%
c1ccc(-c2nn[nH]n2)c(-c2nn[nH]n2)c1 | inactive: 4.57%
CCNC(=S)/N=C(\N)N[N+](=O)[O-] | inactive: 3.67%
O=C(NC1CCS(=O)(=O)C1)NP(=S)(Oc1ccccc1)Oc1ccccc1 (stereo not given) | inactive: 12.2%
O=c1c2cc([N+](=O)[O-])ccc2[nH]c2c([N+](=O)[O-])cc([N+](=O)[O-])cc12 | inactive: -4.9%

SMILES | activity change, negative = inhibition
CN(C)C(=O)Oc1noc2ccccc12 | inactive: 2.58%
Cc1ccccc1OP(=O)(Nc1ccccn1)Oc1ccccc1C | inactive: 7.27%
CCC(=O)N1C2C3N(C(=O)CC)C1C1N(C(=O)CC)C(C(N1C(=O)CC)N3C(=O)CC)N2C(=O)CC | inactive: 0.71%
O=C(OC1CN2CCC1CC2)c1ccccc1 (stereo not given) | inactive: -3.03%
Cc1ccc(OP(=O)(Nc2ccccn2)Oc2ccc(C)cc2)cc1 | inactive: 5.34%
CC(=O)NC(SC(=S)N(CC(C)C)CC(C)C)C(Cl)(Cl)Cl (stereo not given) | inactive: 1.59%
COC(=O)c1cc2c(s1)N=C(c1ccccc1)N(C)P2(=O)N1CCOCC1 (stereo not given) | inactive: -2.09%
CC(C)(C)C(=O)NC(Sc1ccccc1)C(Cl)(Cl)Cl (stereo not given) | inactive: -10.4%
CCOc1ccc(C2=NCC(CBr)S2)cc1 (stereo not given) | inactive: 2.63%
O=P1(Nc2nc3ccc(Cl)cc3s2)COc2ccccc2O1 (stereo not given) | inactive: -1.1%
CC(=O)Nc1ccc(Oc2c([N+](=O)[O-])cc([N+](=O)[O-])cc2[N+](=O)[O-])cc1 | inactive: -0.606%
CC(=O)Nc1ccc([As](=O)(O)O)c(O)c1 | inactive: 2.35%
C[C@H]1OP(=O)(Oc2ccccc2)C[C@@H]2O[C@@H]21 (stereo not given in full) | inactive: -0.707%
C[C@@H]1C=CCP(=O)(Oc2ccccc2)O1 (stereo not given in full) | inactive: 3.87%
CC(=O)c1ccc(N2CC2c2ccncc2)cc1 (stereo not given) | inactive: 2.63%
Cc1cccc(OCC(=O)OC2CN3CCC2CC3)c1 (stereo not given) | inactive: 0.51%
O=[As](O)(c1cccc(O)c1)c1cccc(O)c1 | inactive: 15.1%
O=C(OC1CN2CCC1CC2)c1ccc(Cl)cc1 (stereo not given) | inactive: 3.26%
CS(=O)(=O)c1ccc(Cl)c(NC(=O)COC(=O)C(O)(c2ccccc2)c2ccccc2)c1 | inactive: 0.309%
O=[As](O)(O)c1cccnc1 | inactive: -2.75%
COc1cc(C(=O)NCC2(N3CCOCC3)CCCCC2)cc(Cl)c1OC(C)C | inactive: 2.76%
CCOP(=O)(Nc1cccc2ccccc12)OCC | inactive: 0.12%
COc1cc(C2NCCC3(OCCO3)C2(C)C)cc(OC)c1OC (stereo not given) | inactive: -2.52%
Nc1cccc2c([As](=O)(O)O)cccc12 | inactive: -7.04%
Cc1ccc(NCCc2c([N+](=O)[O-])cc([N+](=O)[O-])cc2[N+](=O)[O-])cc1 | inactive: -5.73%
CCCOP(=S)(Nc1nc(N)cc(=O)[nH]1)OCCC | inactive: 0.76%
Nc1ccccc1[As](=O)(O)c1ccccc1 | inactive: 0.488%
